Experimental data from article PMC6265350.
The exact form of at least one protein or probe is not confirmed.

Columns and labels:
[1] = biological target: T1, MtrA~P (UniProt P9WGM7); experiment: EMSA; conditions: phosphorylated by EnvZ; 50 mM Tris-HCl pH 7.5, 50 mM NaCl, 10 mM MgCl2, 10 mM CaCl2, poly dI/dC and sheared salmon sperm DNA (1 ug), 37 C 15 min; 200 fmol DNA, 1-10 uM protein; 5% PAGE; recombinant protein; protein details: MBP fusion; label: FAM; probe letters rebuilt from the primers and the genome; part of a longer molecule
T1 sequence: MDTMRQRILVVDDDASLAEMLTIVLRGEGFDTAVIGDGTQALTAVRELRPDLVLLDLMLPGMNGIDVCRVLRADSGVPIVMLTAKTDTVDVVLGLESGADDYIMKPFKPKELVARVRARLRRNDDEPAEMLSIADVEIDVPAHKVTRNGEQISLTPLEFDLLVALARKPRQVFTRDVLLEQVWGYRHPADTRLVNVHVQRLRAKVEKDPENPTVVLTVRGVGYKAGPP

[2] = biological target: T2, MtrA (unphosphorylated) (UniProt P9WGM7); experiment: EMSA; conditions: unphosphorylated; 50 mM Tris-HCl pH 7.5, 50 mM NaCl, 10 mM MgCl2, 10 mM CaCl2, […]; recombinant protein; protein details: MBP fusion; label: FAM; probe letters rebuilt from the primers and the genome; part of a longer molecule
T2 sequence: T1 sequence

Sequence	binding result [1]	binding result [2]
AGTGGCGTCACCGATGACTACCGTCAAGGATAGACGCTAGGGGCGCTGCCGAATTTCCGTCAATAGGCGTCCGTTGGCGTGCAATATCGGACCGTTGCGTGAGAATTAACTCTGCGTTCATCTGCGCCGCATTCGCCGCCTGCGCCGCATGCTATCCCGGGCGGATAGATGAGGTATTTGCCCAGGTCATCCCATGCTGTGAGTACGCCTAAATTAGCGCAAAGAAAGCTGTGAGTAATATGCCGTTAACGAAGAA (double strand) [PsigD]	binds	–
GTAGCCGTGGTGCAACTACCGTCCATCCTGTCACACCAGACTCGGCGGTTGCCGATTGGACTAAGTAAATAAGGACCAATTTCAAACTCTAAGACCAAATAAATCACAATCCTTAGATTTGAAATCGTGCGCGCCAAACTTGTCCCCAAATCGTGGCCGAACCGTCTCTCAA (double strand) [Pwag31]	binds	–
GTCGGTGCGGCATCACTTTCGGGATTCGGTATCCGACACCATGCGTATTACCGATCTGGCTGCCCCTAGAAAGATTCCCCCGGGAACCGGTTGGCGGAAATTCGTCTATTCCGTTTCATTTCACAAAATTAATCCAGGTGAATCGCCCCGGGAACGGCACTACCGCAATTTACAGGGACGTATCCGTCGGCATATCCGTCGGCAATATGTCATCACGGTTGTGTCCGGCAAGGGCGGCGTGGGGGTCACCACGATGGCCGCGTGCATCGGCGGCG (double strand) [Prv3887c]	binds	binds
TGGTTCGTTATCTATCCGTTGTGGTCGCGATCACGCTGATGCTCACCGCGGAATCAGTCAGCATAGCGACCGCCGCGGTCCCGCCACTCCAACCGATCCCAGGCGTTGCGTCGGTGTCGCCGGCTAATGGTGCCGTGGTGGGGGTGGCGCACCCGGTGGTGGTGACATTCACCACGCCCGTGACCGATCGCCGCGCCGTCGAGCGGTCCATCCGCATCAGCACACCGCACAACACGACCGGACACTTCGAGTGGGTCGCTAGCAATGTCGTGCGGTGGGTGCCCCACCGGTATTGGCCACCTCACACCCGTGTCTCGGTGG (double strand) [PoxyS]	binds	–
